A mixed list of measured activities; the numbers were collected in NIAID ChemDB.

Shared fields: tests in culture; organism: Hepatitis C virus

Fold resistance has wild type as its base. Conditions beyond the fields shown may differ between rows. Two numbers with a dash give a range or band. Inhibition is in % at the dose shown (toxicity tests: loss of growth or viability). An empty or dashed field is not shown. ECn: concentration that inhibits the pathogen or its effect by n%.

structure,read by,measure,strain or isolate,changes,cell line,dose,result
COC(=O)N[C@H](C(=O)N1CCCC1c1ncc(-c2ccc(-c3ccc(-c4cnc([C@@H]5CC(C)CN5C(=O)[C@@H](NC(=O)CO)C(C)C)[nH]4)cc3)cc2)[nH]1)C(C)C,luciferase,EC50,1b,P32L,ET,,0.0000055 µM
CC1(C)CC(=O)C2=C(C1)Nc1c(O)cccc1NC2c1c(Cl)nc2sccn12,luciferase / reporter gene / replicon,EC50,1b,,,,>10 µM
COc1cccc(-c2ccccc2NC(=O)C2CCN(Cc3cccc(OC)c3O)CC2)c1,PCR,inhibition,JFH-1,,Huh7,5 µM,≥40%
NC(=S)Nc1cccc(OCCCCCOc2ccc(Cl)cc2)c1,reporter gene / fluorescence,EC50,,,Ava5-EG(delta4AB)SEAP,,0.001–1 µM
CC1(C)CC(=O)C2=C(C1)Nc1c(O)cccc1N(C(=O)CCC(=O)Nc1ccccc1C(F)(F)F)C2c1ccc(OCc2ccccc2)cc1Cl,luciferase / reporter gene / replicon,EC50,1b,,,,3.35 µM
NC(=S)Nc1cccc(OCCCCCCc2cccc3ccccc23)c1,reporter gene / fluorescence,EC50,,,Ava5-EG(delta4AB)SEAP,,0.001–1 µM
O=C(Nc1cccc(-c2cccc(Cl)c2)c1)C1CCN(Cc2cccc(O)c2)CC1,PCR,inhibition,JFH-1,,Huh7,15 µM,<40%
NC(=S)Nc1cccc(OCCCCCOc2cccc(Cc3ccccc3)c2)c1,reporter gene / fluorescence,EC50,,,Ava5-EG(delta4AB)SEAP,,0.001–1 µM
CC(=O)N1c2cccc(O)c2NC2=C(C(=O)CC(C)(C)C2)C1c1ccc(Cl)cc1F,luciferase / reporter gene / replicon,EC50,1b,,,,1.64 µM
CC(C)n1cc(CN2CCC(C(=O)Nc3cccc(-c4cc5ccccc5[nH]4)c3)CC2)cn1,PCR,inhibition,JFH-1,,Huh7,15 µM,≥40%
NC(=S)Nc1cccc(OCCCCCOc2ccncc2)c1,reporter gene / fluorescence,EC50,,,Ava5-EG(delta4AB)SEAP,,0.001–1 µM
CC(=O)N1c2cccc(O)c2NC2=C(C(=O)CC(C)(C)C2)C1c1ccc(Cl)cc1,luciferase / reporter gene / replicon,EC50,1b,,,,10.54 µM
CC1CCC(C(=O)N(c2cc(C#CC(C)(C)C)sc2C(=O)O)C2CCC(O)CC2)CC1,luciferase,fold resistance,Con1 (gt 1b),A486V,Huh7,,77.5
CCOc1ccc(CN2CCC(C(=O)Nc3ccccc3-c3cccc(OC)c3)CC2)cc1,PCR,inhibition,JFH-1,,Huh7,15 µM,<40%
CC(=O)N1c2cccc(O)c2NC2=C(C(=O)CC(C)(C)C2)C1c1[nH]c(-c2ccccc2)nc1Cl,luciferase / reporter gene / replicon,EC50,1b,,,,>100 µM
NC(=S)Nc1cccc(OCCCCCOc2ccc(-c3ccccc3)cc2)c1,reporter gene / fluorescence,EC50,,,Ava5-EG(delta4AB)SEAP,,0.001–1 µM
O=C(N[C@@H](C(=O)N1CCC[C@H]1c1ncc(-c2ccc(-c3ccc(-c4cnc([C@@H]5CCCN5C(=O)[C@H](NC(=O)C5CC5)c5ccccc5)s4)cc3)cc2)s1)c1ccccc1)C1CC1,luciferase / reporter gene,fold resistance,genotype 2a,Y93N,Huh7.5,,207
CCCn1ncc(CN2CCC(C(=O)Nc3ccccc3-c3cccc(OC)c3)CC2)c1C,PCR,inhibition,JFH-1,,Huh7,15 µM,≥40%
Cc1cccc(-c2ccccc2OCCCCCOc2cccc(NC(N)=S)c2)c1,reporter gene / fluorescence,EC50,,,Ava5-EG(delta4AB)SEAP,,0.001–1 µM

The last 2 rows once more:

structure | read by | measure | strain or isolate | changes | cell line | dose | result
CCCn1ncc(CN2CCC(C(=O)Nc3ccccc3-c3cccc(OC)c3)CC2)c1C | PCR | inhibition | JFH-1 |  | Huh7 | 15 µM | ≥40%
Cc1cccc(-c2ccccc2OCCCCCOc2cccc(NC(N)=S)c2)c1 | reporter gene / fluorescence | EC50 |  |  | Ava5-EG(delta4AB)SEAP |  | 0.001–1 µM